Anti-infective test results gathered from many reports (values: NIAID ChemDB through PubChem).

Shared fields: cytotoxicity tests; cell line: HepG2; read-out: CC50

An empty or dashed field is not shown. Two numbers with a dash give a range or band. CCn: concentration that lowers growth or viability of the cells by n%. Neighbouring rows are from separate reports.

compound | read by | result
CC(C)C[C@@H]1NC(=O)[C@H](Cc2ccc(O)cc2)NC(=O)[C@@H](CCCCN)NC(=O)[C@H](CC(N)=O)NC(=O)[C@H](C(C)C)NC(=O)[C@@H](CC(C)C)NC1=O | MTT | >30 µM
CC(C)(C)c1ccc(Oc2ccc(-c3nc(N)nc(N)n3)cc2)cc1 | sulforhodamine / absorbance | >239 µM
CCCN(Cc1ccccc1OCCCCCC(=O)OCC)C(=O)c1ccc(Br)cc1 | - | >20 µM
CCC(C)[C@@H]1NC(=O)[C@@H](CC(C)C)NC(=O)[C@H](CC(C)C)NC(=O)[C@H](Cc2c[nH]c3ccccc23)NC(=O)CNC(=O)[C@H](CC(N)=O)NC1=O | MTT | >30 µM
CCCCCN1C2=C(Sc3ccccc31)C(=O)OC2 | resazurin | >32 µg/mL
CCOC(=O)CCCCCOc1cccc(CN(C(=O)c2ccc(-c3cccc(-c4ccccc4)c3)cc2)C(C)C)c1 | - | >20 µM
CCC1(NC(=O)C(=O)c2c(C)c(C(=O)Nc3ccc(F)c(C)c3)c(C)n2C)CCN(C(=O)c2ccnn2C)CC1 | MTT | >30 µM
C/C(=C\CP(=O)(OCOC(=O)OC(C)C)OCOC(=O)OC(C)C)Cn1cc(C(C)(C)C)nn1 | absorbance | >100 µM
CCOC(=O)CCCCCOc1cccc(CNC(C)C)c1 | - | >20 µM
C/C(=C\CP(=O)(OCOC(=O)OC(C)C)OCOC(=O)OC(C)C)Cn1cc(C(=O)O)nn1 | absorbance | >100 µM
Cc1c(C(=O)Nc2ccc(F)c(-c3ncn[nH]3)c2)c(C)n(C)c1C(=O)C(=O)NC(C)(C)C | MTT | >30 µM
CCc1ccc2[nH]c3cc(C#N)c(=O)oc3c2c1 | visual reading / absorbance | 8 µg/mL
CC(C)C[C@@H]1NC(=O)[C@H](Cc2c[nH]c3ccccc23)NC(=O)[C@@H](CCCCN)NC(=O)[C@H](CC(C)C)NC(=O)[C@H](C(C)C)NC(=O)[C@@H](CC(C)C)NC1=O | MTT | >30 µM
CCOC(=O)c1cn(C/C(C)=C/CP(=O)(OCOC(=O)OC(C)C)OCOC(=O)OC(C)C)nn1 | absorbance | >100 µM
CCOC(=O)CCCCCOc1cccc(CN(C(=O)c2ccccc2)C(C)C)c1 | - | >20 µM
CN(C)CCC(O)(c1cccc(F)c1)C1c2ccccc2Sc2ccccc21 | resazurin | 12 µg/mL
CC(C)C[C@@H]1NC(=O)[C@H](Cc2c[nH]c3ccccc23)NC(=O)[C@@H](Cc2ccccc2)NC(=O)[C@H](CCCCN)NC(=O)[C@H](C(C)C)NC(=O)[C@@H](CC(C)C)NC1=O | MTT | >30 µM
Nc1nc(N)nc(-c2ccc(Oc3ccccc3)cc2)n1 | sulforhodamine / absorbance | >286 µM
C=CCCC1=NCC(O[Si](C)(C)C(C)(C)C)c2cc(OC)c(OC)cc21 | - | >20 µM
CC(C)C[C@@H]1NC(=O)[C@H](Cc2c[nH]c3ccccc23)NC(=O)[C@@H](CCCN)NC(=O)[C@H](CC(N)=O)NC(=O)[C@H](C(C)C)NC(=O)[C@@H](CC(C)C)NC1=O | MTT | >30 µM
O=C(O)CCN1c2ccccc2Sc2ccccc21 | resazurin | >32 µg/mL
NCCOc1ccc2ccc(=O)n(CCN[C@H]3CC[C@H]4[C@@H](C3)OC(=O)N4c3ccc4c(n3)NC(=O)CO4)c2c1 | luminescence | >100 µg/mL
Cc1cc(NC(=O)c2c(C)c(C(=O)C(=O)NC3(CO)CCN(C(=O)c4cn(C)nc4C(F)F)CC3)n(C)c2C)ccc1F | MTT | >30 µM
COC(=O)c1cn(C/C(C)=C/CP(=O)(OCOC(=O)OC(C)C)OCOC(=O)OC(C)C)nn1 | absorbance | >100 µM
Cc1cc(Cl)ccc1Oc1ccc(-c2nc(N)nc(N)n2)cc1 | sulforhodamine / absorbance | >244 µM
CC(C)C[C@@H]1NC(=O)[C@H](Cc2c[nH]c3ccccc23)NC(=O)C(C[C@@H](C)[C@H](N)C(=O)O)NC(=O)[C@H](CC(N)=O)NC(=O)[C@H](C(C)C)NC(=O)[C@@H](CC(C)C)NC1=O | MTT | >30 µM
O=C(Nc1ccc(Cl)c(Cl)c1)c1cc(Cl)ccc1O | MTT | 1.99 µM
COc1ccc(C=C2c3ccccc3Sc3ccccc32)cc1C | resazurin | 15 µg/mL
Cc1cc(Oc2ccc(-c3nc(N)nc(N)n3)cc2)cc(C)c1Cl | sulforhodamine / absorbance | >234 µM
CCCCCCCc1ccc(-c2cn(C/C(C)=C/CP(=O)(OCOC(=O)OC(C)C)OCOC(=O)OC(C)C)nn2)cc1 | absorbance | 90.8 µM
Cc1ccc2[nH]c3cc(C#N)c(=O)oc3c2c1 | visual reading / absorbance | 0.8 µg/mL
CC[C@H](C)[C@@H]1NC(=O)[C@@H](CC(C)C)NC(=O)[C@H](CC(C)C)NC(=O)[C@H](Cc2c[nH]c3ccccc23)NC(=O)CNC(=O)[C@H](CC(N)=O)NC1=O | MTT | >30 µM
Cc1ccc(Oc2ccc(-c3nc(N)nc(N)n3)cc2)cc1 | sulforhodamine / absorbance | >272 µM
CCNC(=O)c1cn(C/C(C)=C/CP(=O)(OCOC(=O)OC(C)C)OCOC(=O)OC(C)C)nn1 | absorbance | >100 µM
CCCCN1c2ccccc2Sc2ccccc21 | resazurin | >32 µg/mL
Cc1cc(NC(=O)c2c(C3CC3)c(C(=O)C(=O)NC3(C)CC(O)C3)n(C)c2C)ccc1F | MTT | >30 µM
CC(C)C[C@@H]1NC(=O)[C@H](Cc2c[nH]c3ccccc23)NC(=O)CNC(=O)[C@H](CC(N)=O)NC(=O)[C@H]([C@@H](C)O)NC(=O)[C@@H](CC(C)C)NC1=O | MTT | >30 µM
CCc1c(C(=O)Nc2ccc(F)c(C)c2)c(C)n(C)c1C(=O)C(=O)NC1(C)CC(O)C1 | MTT | >30 µM
CCOC(=O)CCCCCOc1cccc(CN(C(=O)c2ccc(-c3cccc(N(C)C)c3)cc2)C(C)C)c1 | - | >20 µM
NS(=O)(=O)c1ccc(Oc2ccc3ccc(=O)n(CCN[C@H]4CC[C@@H]5[C@@H](C4)OC(=O)N5c4ccc5c(n4)NC(=O)CO5)c3n2)cc1 | luminescence | 10–100 µg/mL
C=CCC1=CCCc2cc(OC)c(OC)cc21 | - | >20 µM
Cc1cc(NC(=O)c2c(C3CC3)c(C(=O)C(=O)N[C@H](C)C(F)(F)F)n(C)c2C)ccc1F | MTT | >30 µM
NCCOc1ccc2ccc(=O)n(CCN[C@H]3CC[C@H]4[C@@H](C3)OC(=O)N4c3ccc4c(n3)NC(=O)CO4)c2n1 | luminescence | >100 µg/mL

A second listing of 4 rows from above:

{"compound": "C=CCCC1=NCC(O[Si](C)(C)C(C)(C)C)c2cc(OC)c(OC)cc21", "result": ">20 µM"}
{"compound": "CC(C)C[C@@H]1NC(=O)[C@H](Cc2c[nH]c3ccccc23)NC(=O)[C@@H](CCCCN)NC(=O)[C@H](CC(C)C)NC(=O)[C@H](C(C)C)NC(=O)[C@@H](CC(C)C)NC1=O", "read by": "MTT", "result": ">30 µM"}
{"compound": "CCc1ccc2[nH]c3cc(C#N)c(=O)oc3c2c1", "read by": "visual reading / absorbance", "result": "8 µg/mL"}
{"compound": "C/C(=C\\CP(=O)(OCOC(=O)OC(C)C)OCOC(=O)OC(C)C)Cn1cc(C(=O)O)nn1", "read by": "absorbance", "result": ">100 µM"}